Pooled drug test results. Numbers come from NIAID ChemDB, via PubChem.

Common to all: target-level tests; species: HIV-1; protein: Reverse transcriptase; measure: fold resistance

Fold resistance has wild type as its base.

structure,strain,mutations,method,value
CCN1c2ncc(CCOc3ccc(C(=O)O)c4ccccc34)cc2C(=O)N(C)c2ccc(F)nc21,-,RT-Y188L,nucleotide incorporation / radiometric,>10
CCN1c2ncc(CCOc3ccc(-c4ccncc4)cc3C)cc2C(=O)N(C)c2cccnc21,IIIB,RT-K103N Y181C,nucleotide incorporation / radiometric,1
CCNC(=O)N1CCc2c(OCCc3cnc4c(c3)C(=O)N(C)c3cccnc3N4CC)ccc(C(=O)O)c2C1,-,RT-Y188L,nucleotide incorporation / radiometric,>10
CCN1c2ncc(CCOc3ccc(-c4ccc(CC(=O)O)cc4)cc3C)cc2C(=O)N(C)c2cccnc21,IIIB,RT-K103N Y181C,nucleotide incorporation / radiometric,1
COC(=O)NCCCCNc1nc(Cc2ccccc2)c(C)c(=O)[nH]1,-,RT-Y188L,-,>43.5
COc1ccc2c(C3CC3)ccc(-n3c(Br)nnc3SCC(=O)Nc3ccc(C(=O)O)cc3Cl)c2c1,-,RT-Y188L,nucleotide incorporation / radiometric,>1
CCN1c2ncc(CCOc3ccc(NC(=O)CCC(=O)O)c4ccccc34)cc2C(=O)N(C)c2cccnc21,-,RT-V106A,nucleotide incorporation / radiometric,>10
CCCc1cc(=O)oc2c3c(c4c(c12)OC(C)(C)C=C4)O[C@H](C)C[C@@H]3O,-,RT-L100I,nucleotide incorporation / radiometric,3.4
CCN1c2nc(C(F)(F)F)ccc2NC(=O)c2cc(CCOc3cc[n+]([O-])c4ccccc34)cnc21,-,RT-Y188L,nucleotide incorporation / radiometric,16.5
CCN1c2ncc(CCOc3cccc4[nH]c(=O)n(C)c34)cc2C(=O)N(C)c2cccnc21,IIIB,RT-K103N Y181C,nucleotide incorporation / radiometric,>1
Cc1occc1C(=S)Nc1ccc(Cl)c(C(=O)OCC2CC2)c1,-,RT-Y188H,nucleotide incorporation / radiometric,>8.33
O=C(CSc1nnc(Br)n1-c1ccc(C2CC2)cc1Cl)Nc1ccc(C(=O)O)cc1Cl,-,RT-Y188L,nucleotide incorporation / radiometric,>2
CCc1cc(CCc2nc3ccccc3o2)c(=O)[nH]c1C,-,RT-K103N,nucleotide incorporation,15.9
CCN1c2ncc(CCOc3ccc(NS(C)(=O)=O)cc3C)cc2C(=O)N(C)c2cccnc21,IIIB,RT-K103N Y181C,nucleotide incorporation / radiometric,1
CCOC(=O)c1c(C(C)C)c(C#N)c(=N)n2ccccc12,-,RT-Y188L,-,0.867
CCN1c2ncc(CCOc3cccc4c3CCNC4=O)cc2C(=O)N(C)c2cccnc21,IIIB,RT-K103N Y181C,nucleotide incorporation / radiometric,>1
CC(C)=CCN1Cc2cccc3[nH]c(=S)n(c23)C[C@@H]1C,-,RT-Y181C,nucleotide incorporation,11.3
CCN1c2ncc(CCOc3ccc4[nH]c(=O)[nH]c4c3)cc2C(=O)N(C)c2cccnc21,IIIB,RT-K103N Y181C,nucleotide incorporation / radiometric,>1
Cc1cc(C2CC2)cc(C)c1-n1c(Br)nnc1SCC(=O)Nc1ccc(C(=O)O)cc1Cl,-,RT-Y188L,nucleotide incorporation / radiometric,>2
CCN1c2ncc(CCOc3cccc4c3CN(C)C(=O)N4C)cc2C(=O)N(C)c2cccnc21,IIIB,RT-K103N Y181C,nucleotide incorporation / radiometric,>2
Cc1cc(S(N)(=O)=O)ccc1NC(=O)COc1ccccc1C(=O)c1cc(Cl)cc(C#N)c1,NNRTI-resistant,RT-K103N Y181C,fluorescence,1.4
CCOC(=O)[C@H](Cc1ccc(O)cc1)NC(=O)c1ccc(NC(=O)CSc2nnc(Br)n2-c2ccc(C3CC3)c3ccccc23)c(Cl)c1,-,RT-Y181C,nucleotide incorporation / radiometric,<1
O=c1cc(Cc2ccccc2)nc(SCCCCO)[nH]1,-,RT-V179D,-,1.39
CCN1c2ncc(CCOc3ccc(-c4cccnc4)cc3C)cc2C(=O)N(C)c2cccnc21,IIIB,RT-K103N Y181C,nucleotide incorporation / radiometric,1
CCN1c2ncc(CCOc3ccc(/C=C(\C)C(=O)O)c4ccccc34)cc2C(=O)N(C)c2ccc(Cl)nc21,-,RT-V106A,nucleotide incorporation / radiometric,1–10
CC(C)=CCOc1cc(NC(=S)c2ccoc2C)ccc1Cl,-,RT-L74V,-,0.63
C=Cc1nc(SC)nc(N(C)C)c1Cl,-,RT-Y181I,nucleotide incorporation / radiometric,>4.4
CCN1c2ncc(CCOc3cccc4c3COC(=O)N4)cc2C(=O)N(C)c2cccnc21,IIIB,RT-K103N Y181C,nucleotide incorporation / radiometric,>2
C=CCO/N=C/c1cc(NC(=S)c2ccoc2C)ccc1Cl,-,RT-K103N,nucleotide incorporation / radiometric,>8.33
O=c1cc(Cc2ccccc2)nc(NCCCCO)[nH]1,-,RT-Y181L,-,>2.44
CCN1c2ncc(CCOc3ccc(CC(=O)O)c4ccccc34)cc2C(=O)N(C)c2ccc(C)nc21,-,RT-V106A,nucleotide incorporation / radiometric,>10
Cc1occc1C(=S)Nc1ccc(Cl)c(/C=N/OC(C)(C)C)c1,-,RT-K103N,nucleotide incorporation / radiometric,>3.85
CCN1c2ncc(CCOc3ccc(CC(=O)O)c4c3CCCC4)cc2C(=O)N(C)c2cccnc21,-,RT-V106A,nucleotide incorporation / radiometric,>10
CCN1c2ncc(CCOc3ccc(C(=O)NN)cc3C)cc2C(=O)N(C)c2cccnc21,IIIB,RT-K103N Y181C,nucleotide incorporation / radiometric,1
Cc1cc(C(=O)O)ccc1NC(=O)CSc1nnc(C(F)F)n1-c1ccc(C)c2c1CCCC2,-,RT-Y181C,nucleotide incorporation / radiometric,>2
C=Cc1cc(N(CC)CC)nc(S(C)(=O)=O)n1,-,RT-K103N,nucleotide incorporation / radiometric,>114
NC(=O)c1[nH]c2ccc(Cl)cc2c1S(=O)(=O)c1ccccc1,-,RT-K103N,nucleotide incorporation / radiometric,5
CC(C)=CCOc1cc(NC(=S)c2ccsc2C)ccc1Cl,-,RT-V106A,-,2.5
CCN1c2ncc(CCOc3ccc(-c4cocn4)cc3C)cc2C(=O)N(C)c2cccnc21,IIIB,RT-K103N Y181C,nucleotide incorporation / radiometric,1
CCN1c2ncc(CCOc3ccc(C(=O)O)c4c3CCN(S(=O)(=O)N(C)C)C4)cc2C(=O)N(C)c2cccnc21,-,RT-Y188L,nucleotide incorporation / radiometric,1–10
CCN1c2ncc(CCOc3cccc4c3n(C)c(=O)n4C)cc2C(=O)N(C)c2cccnc21,IIIB,RT-K103N Y181C,nucleotide incorporation / radiometric,>1
CCN1c2ncc(CCOc3ccc(C(C)CC(=O)O)c4ccccc34)cc2C(=O)N(C)c2cccnc21,-,RT-K103N Y181C,nucleotide incorporation / radiometric,1–10
CCc1ccc(-n2c(Br)nnc2SCC(=O)Nc2ccc(C(=O)NCC(=O)O)cc2Cl)c2ccccc12,-,RT-Y188L,nucleotide incorporation / radiometric,>2
CCN1c2ncc(CCOc3ccc4c(c3)COC(=O)N4)cc2C(=O)N(C)c2cccnc21,IIIB,RT-K103N Y181C,nucleotide incorporation / radiometric,>2
Cc1cc(C)cc(S(=O)(=O)c2c(C(N)=O)[nH]c3ccc(F)c(F)c23)c1,-,RT-Y181I,nucleotide incorporation / radiometric,681.8
CCN1c2ncc(CCOc3ccc(C(=O)O)c4ccccc34)cc2C(=O)N(C)c2ccc(C)nc21,-,RT-Y188L,nucleotide incorporation / radiometric,>10

The last 3 rows once more:

{"structure": "CCN1c2ncc(CCOc3ccc4c(c3)COC(=O)N4)cc2C(=O)N(C)c2cccnc21", "strain": "IIIB", "mutations": "RT-K103N Y181C", "method": "nucleotide incorporation / radiometric", "value": ">2"}
{"structure": "Cc1cc(C)cc(S(=O)(=O)c2c(C(N)=O)[nH]c3ccc(F)c(F)c23)c1", "mutations": "RT-Y181I", "method": "nucleotide incorporation / radiometric", "value": "681.8"}
{"structure": "CCN1c2ncc(CCOc3ccc(C(=O)O)c4ccccc34)cc2C(=O)N(C)c2ccc(C)nc21", "mutations": "RT-Y188L", "method": "nucleotide incorporation / radiometric", "value": ">10"}

Two numbers with a dash give a range or band. Rows are shuffled and stem from different studies. An empty or dashed field is not shown.